Taken from: PubChem BioAssay AID624099 (ICCB-Longwood, 2012)
The whole screen tested about 21,000 reagents; shown is an unselected part. 497 of all reagents (2.4%) count as active. 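Higher z means weaker E2 silencing; only reporter increases were scored, and knock-downs that hurt cell survival may mask genuine repressor factors.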

Purpose: 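Host factors E2 relies on to silence an HPV18 LCR reporter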 (primary screen)
Cell system: human C33A cervical carcinoma cells (HPV-negative) stably expressing BPV1 E2 and an HPV18 LCR luciferase reporter
Reagents: siRNA pool against human genes, 40 nM
Time to read-out: 72 h
Measurement: 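HPV18 LCR reporter light per well, converted to plate-wise z-scores that exclude control wells, and averaged over triplicate plates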
Scale: mean z-score and z-score: higher = stronger reporter signal, weaker E2 silencing
Call rule: 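Hit if mean z-score reaches 2 and two or more of three replicate z-scores also reach 2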

gene knocked down	mean z-score	z-score, replicate A	z-score, replicate B	z-score, replicate C	activity call
CLU	1.17	1.06	1.24	1.22	inactive
KIAA1549	0.78	1.01	0.95	0.36	inactive
FMO3	0.19	0.22	0.13	0.24	inactive
CCDC121	0.57	0.95	0.59	0.17	inactive
SRXN1	-1.03	-1.07	-1.2	-0.82	inactive
HLA-DQB1	-0.63	-0.59	-0.7	-0.59	inactive
MED4	-2.24	-2.24	-2.33	-2.16	inactive
PRM2	0.81	0.95	0.72	0.75	inactive
RIF1	0.32	0.58	0.36	0.03	inactive
NOS1AP	-1.07	-1.19	-1.06	-0.97	inactive
PCDHGB7	-0.54	-0.88	-0.35	-0.37	inactive
FGR	-0.21	0.16	-0.56	-0.24	inactive
DEFB125	-0.53	-0.79	-0.24	-0.55	inactive
VPS13C	-0.77	-0.93	-0.99	-0.4	inactive
G3BP1	0.33	0.27	0.45	0.25	inactive
SUMF2	-0.78	-1.06	-0.58	-0.69	inactive
LINC01144	1.08	1.24	0.89	1.12	inactive
ETFA	2.54	2.37	2.41	2.84	active
INPP5B	1.1	1.43	0.92	0.97	inactive
WFDC8	-0.22	0.22	-0.31	-0.57	inactive
PHEX	-0.2	-0.35	-0.24	0	inactive
QRICH1	0.82	0.61	0.76	1.08	inactive
DORIP1	0.04	0.12	0.19	-0.2	inactive
VAT1	0.69	0.6	0.71	0.75	inactive
NME4	-0.35	-0.16	-0.71	-0.17	inactive
LOC285101 (retired record)	-0.13	-0.11	-0.11	-0.19	inactive
TAF13	1.15	0.98	1.57	0.91	inactive
PRTG	-0.76	-0.43	-1.08	-0.77	inactive
IRGC	0.17	0.05	0.19	0.27	inactive
ARHGAP31	0.53	0.47	0.66	0.46	inactive
GPRC6A	-1.09	-1.01	-0.95	-1.33	inactive
MDFIC	-0.66	-0.7	-0.89	-0.4	inactive
KCND3	-0.23	-0.16	-0.06	-0.45	inactive
ZNF30	2.69	2.39	3.04	2.66	active
CBY2	0.04	0.05	-0.03	0.11	inactive
NCOR1P1	-0.81	-1.02	-0.58	-0.82	inactive
RABGAP1L	0.6	0.37	0.52	0.9	inactive
INSIG1	0.88	0.83	0.89	0.93	inactive
LOC390680 (retired record)	-0.94	-1.18	-0.79	-0.86	inactive

5 entries from above, limited to “z-score, replicate C”:
WFDC8	-0.57
PHEX	0
QRICH1	1.08
DORIP1	-0.2
VAT1	0.75
